Test results from the supplement of paper PMC3578754.
Fold change is the IC50 on the isolate divided by the IC50 on a reference virus; 1 = unchanged, higher = more resistant. Changes are given against the subtype B consensus. No active / inactive call. The values were gathered from many studies (numbered anew) with different assays, which the source does not name. Most viruses are clinical isolates; some are laboratory strains or clones with known resistance changes. Isolates with mixed residues are left out; stretches that were not sequenced show no change. Round top values that many isolates share are read here as limits; other very high values and 0.1 may be limits too.

Columns and labels:
Experiment in all cases: fold change of IC50 against reference virus; higher = more resistant
stavudine = compound: Cc1cn([C@H]2C=C[C@@H](CO)O2)c(=O)[nH]c1=O [stavudine]
Method: (§1)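 Cell-culture drug susceptibility tests of virus bearing the reverse transcriptase of each isolate, gathered from many studies.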

didanosine = compound: O=c1[nH]cnc2c1ncn2[C@H]1CC[C@@H](CO)O1 [didanosine]
Method: as §1

delavirdine = compound: CC(C)Nc1cccnc1N1CCN(C(=O)c2cc3cc(NS(C)(=O)=O)ccc3[nH]2)CC1 [delavirdine]
Method: as §1

nevirapine = compound: Cc1ccnc2c1NC(=O)c1cccnc1N2C1CC1 [nevirapine]
Method: as §1

zidovudine = compound: Cc1cn([C@H]2C[C@H](N=[N+]=[N-])[C@@H](CO)O2)c(=O)[nH]c1=O [zidovudine]
Method: as §1

efavirenz = compound: O=C1Nc2ccc(Cl)cc2[C@@](C#CC2CC2)(C(F)(F)F)O1 [efavirenz]
Method: as §1

| Test System | fold change of IC50 against reference virus (stavudine) | fold change of IC50 against reference virus (didanosine) | fold change of IC50 against reference virus (delavirdine) | fold change of IC50 against reference virus (nevirapine) | fold change of IC50 against reference virus (zidovudine) | fold change of IC50 against reference virus (efavirenz) |
| --- | --- | --- | --- | --- | --- | --- |
| HIV-1 isolate 565 (reverse transcriptase changes: K122E Q161L H208Y F214L A272P K277R M357T A376T A400T N447S D460N S468T S519N, study 35) | 0.6 | 1 |  |  |  |  |
| HIV-1 isolate 1528 (reverse transcriptase changes: V106A K122E F214L F227L A272P K277R A376T A400T K451R V458L D460N R461K S468P D471N H483Y K512Q S519N E529Q V559I, study 96) |  | 1 | 25 | 700 | 1.6 |  |
| HIV-1 isolate 462 (reverse transcriptase changes: K102Q V106A S162C F227L K277R, study 1) |  |  | 6 | 70 | 0.5 |  |
| HIV-1 isolate 294 (reverse transcriptase changes: K102Q V106A S162C K277R I293V R358K V435I S468P K550G, study 27) |  |  |  |  |  | 4 |
| HIV-1 isolate 253 (reverse transcriptase changes: V106A K122E F214L A272P K277R A376T A400T K451R V458L D460N R461K S468P D471N H483Y K512Q S519N E529Q V559I, study 96) |  | 0.4 | 10 | 40 | 1.3 |  |
| HIV-1 isolate 786 (reverse transcriptase changes: K102Q S162C Y181C K277R I293V R358K V435I S468P K550G, study 27) |  |  |  |  |  | 2 |
| HIV-1 isolate 1349 (reverse transcriptase changes: K101E K102Q S162C K277R I293V R358K V435I S468P K550G, study 27) |  |  |  |  |  | 8 |
| HIV-1 isolate 1201 (reverse transcriptase changes: L100I K103N K122E F214L A272P K277R A376T A400T K451R V458L D460N R461K S468P D471N H483Y K512Q S519N E529Q V559I, study 27) |  |  |  |  |  | 8000 |
| HIV-1 isolate 28 (reverse transcriptase changes: K102Q S162C T215Y K277R, study 9) | 2.9 | 2.9 |  | 2 | 15.1 |  |
| HIV-1 isolate 1122 (reverse transcriptase changes: K122E E138K Y188H F214L A272P K277R A376T A400T D460N S468T H483Y K512Q S519N, study 85) |  |  |  |  |  | 1.9 |
| HIV-1 isolate 127 (reverse transcriptase changes: K122E F214L A272P K277R M357T A376T A400T N447S D460N S468T S519N, study 35) | 1 | 1 |  | 1 | 1 |  |
| HIV-1 isolate 660 (reverse transcriptase changes: K102Q S162C L234I K277R, study 1) |  |  | 2 | 0.5 | 1 |  |
| HIV-1 isolate 1129 (reverse transcriptase changes: K101E G190S, study 110) | 0.8 | 1.2 | 3 | 580 | 1 |  |
| HIV-1 isolate 862 (reverse transcriptase changes: K102Q S162C F227C K277R, study 1) |  |  | 1 | 12 | 0.1 |  |
| HIV-1 isolate 740 (reverse transcriptase changes: K102Q S162C Y188L K277R I293V R358K V435I S468P K550G, study 27) |  |  |  |  |  | ≥ 500 |
| HIV-1 isolate 1120 (reverse transcriptase changes: K102Q K103N S162C Y181C K277R I293V R358K V435I S468P K550G, study 27) |  |  |  |  |  | 130 |
| HIV-1 isolate 1036 (reverse transcriptase changes: K102Q K103N S162C K277R I293V R358K V435I S468P K550G, study 27) |  |  |  |  |  | 33 |
| HIV-1 isolate 1104 (reverse transcriptase changes: L100I D123E G141R R172K D177E V179D Y181C T200I Q207E R211K I293V P294Q E297K I375V V435I K550R A554T, study 140) |  |  |  |  |  | 1000 |
| HIV-1 isolate 880 (reverse transcriptase changes: D123E D177E V245E T286A I293V E300Q P321S M357T S379G T386I K390R A400T K431R V435L, study 29) | 1.4 |  |  |  |  |  |
| HIV-1 isolate 1094 (reverse transcriptase changes: L100I K101E K102Q S162C K277R I293V R358K V435I S468P K550G, study 27) |  |  |  |  |  | ≥ 500 |
| HIV-1 isolate 527 (reverse transcriptase changes: K102Q S162C V179D K277R I293V R358K V435I S468P K550G, study 27) |  |  |  |  |  | 1 |
| HIV-1 isolate 1330 (reverse transcriptase changes: K101I V106A K122E F214L F227L A272P K277R A376T A400T K451R V458L D460N R461K S468P D471N H483Y K512Q S519N E529Q V559I, study 96) |  | 0.5 | ≥ 250 | 700 | 1 |  |
| HIV-1 isolate 56 (reverse transcriptase changes: K122E V179F Y181C F214L A272P K277R A376T A400T D460N S468T H483Y K512Q S519N, study 85) |  |  |  |  |  | 9.4 |
| HIV-1 isolate 1602 (reverse transcriptase changes: D67N K70R V75A K122E F214L T215F K219E A272P K277R, study 20) | 3.3 | 2 |  |  |  |  |
| HIV-1 isolate 1523 (reverse transcriptase changes: L100I K102Q S162C K277R I293V R358K V435I S468P K550G, study 27) |  |  |  |  |  | 33 |
| HIV-1 isolate 674 (reverse transcriptase changes: K102Q S162C Y181C K277R, study 1) |  |  | 83 | 70 | 1 |  |
| HIV-1 isolate 1127 (reverse transcriptase changes: K101I V106A K122E Y181C F214L F227L A272P K277R A376T A400T K451R V458L D460N R461K S468P D471N H483Y K512Q S519N E529Q V559I, study 96) |  | 0.3 | 1 | 700 | 1 |  |
| HIV-1 isolate 1486 (reverse transcriptase changes: K102Q S162C K277R, study 1) |  |  | 1 | 1 | 1 |  |
